Assay results reported in paper PMC12836348, “Alanine Mutagenesis Identifies Specific Amino Acids of Nemertide Alpha‑1 Activity and Its Binding to Target Receptors” (Journal of Natural Products, 2025).

Columns and labels:
[1] = biological target: T1, rNaV1.4 (Rattus norvegicus, UniProt P15390); assay: Two-electrode voltage clamp, Nav1.4 in Xenopus laevis oocytes; assay type: cell-based; conditions: negative impact on affinity
T1 construct: expressed in transfected cells; host or cells: Xenopus laevis oocytes (cRNA injection)

[2] = tested on: BgNav1; assay: Two-electrode voltage clamp, BgNav1 expressed in Xenopus laevis oocytes; assay type: cell-based, Blattella germanica
[3] = biological target: T2, hNav1.1 (Homo sapiens, UniProt P35498); assay: Two-electrode voltage clamp, Nav1.1 in Xenopus laevis oocytes; assay type: cell-based; conditions: two-electrode voltage clamp in Xenopus laevis oocytes, Hill fit, n ≥ 3; highest tested concentration 50 μM
T2 construct: expressed in transfected cells; host or cells: Xenopus laevis oocytes (cRNA injection)

| Structure (SMILES) | fold increase in EC50 on Nav1.4 relative to alpha-1 [1] | fold increase in EC50 on BgNav1 relative to alpha-1 (times lower activity) [2] | EC50 Nav1.1 [3] |
| --- | --- | --- | --- |
| CC[C@H](C)[C@@H]1NC(=O)[C@@H](NC(=O)CN)CSSC[C@@H]2NC(=O)[C@@H]3CSSC[C@@H](C(=O)N[C@@H](CC(N)=O)C(=O)N4C[C@H](O)C[C@H]4C(=O)N4C[C@H](O)C[C@H]4C(=O)N[C@@H](CC(N)=O)C(=O)N[C@@H](CCC(N)=O)C(=O)O)NC(=O)[C@H](CCCCN)NC(=O)[C@H](Cc4ccccc4)NC(=O)[C@H](CC(N)=O)NC(=O)[C@H](Cc4c[nH]c5ccccc45)NC(=O)CNC(=O)[C@H](CSSC[C@H](NC(=O)[C@H](C)NC(=O)[C@H](CO)NC(=O)CNC(=O)[C@H]([C@@H](C)O)NC(=O)[C@H](C)NC1=O)C(=O)N[C@@H]([C@@H](C)O)C(=O)N[C@@H](CC(C)C)C(=O)N[C@@H](CO)C(=O)N[C@@H](CCCCN)C(=O)NCC(=O)N3)NC(=O)[C@H](CC(N)=O)NC(=O)[C@H](CCCCN)NC(=O)[C@H]([C@@H](C)O)NC2=O [Peptide F8A] | 3.8- to 30 fold | – | – |
| CC[C@H](C)[C@@H]1NC(=O)[C@@H](NC(=O)CN)CSSC[C@@H]2NC(=O)[C@@H]3CSSC[C@@H](C(=O)N[C@@H](CC(N)=O)C(=O)N4C[C@H](O)C[C@H]4C(=O)N4C[C@H](O)C[C@H]4C(=O)N[C@@H](CC(N)=O)C(=O)N[C@@H](CCC(N)=O)C(=O)O)NC(=O)[C@H](CCCCN)NC(=O)[C@H](Cc4ccccc4)NC(=O)[C@H](CC(N)=O)NC(=O)[C@H](Cc4c[nH]c5ccccc45)NC(=O)CNC(=O)[C@H](CSSC[C@H](NC(=O)[C@H](Cc4ccccc4)NC(=O)[C@H](CO)NC(=O)CNC(=O)[C@H]([C@@H](C)O)NC(=O)[C@H](C)NC1=O)C(=O)N[C@@H]([C@@H](C)O)C(=O)N[C@@H](CC(C)C)C(=O)N[C@@H](CO)C(=O)N[C@@H](C)C(=O)NCC(=O)N3)NC(=O)[C@H](CC(N)=O)NC(=O)[C@H](CCCCN)NC(=O)[C@H]([C@@H](C)O)NC2=O [Peptide K13A] | 3.8- to 30 fold | – | – |
| CC[C@H](C)[C@@H]1NC(=O)[C@@H](NC(=O)CN)CSSC[C@@H]2NC(=O)[C@@H]3CSSC[C@@H](C(=O)N[C@@H](CC(N)=O)C(=O)N4C[C@H](O)C[C@H]4C(=O)N4C[C@H](O)C[C@H]4C(=O)N[C@@H](CC(N)=O)C(=O)N[C@@H](CCC(N)=O)C(=O)O)NC(=O)[C@H](C)NC(=O)[C@H](Cc4ccccc4)NC(=O)[C@H](CC(N)=O)NC(=O)[C@H](Cc4c[nH]c5ccccc45)NC(=O)CNC(=O)[C@H](CSSC[C@H](NC(=O)[C@H](Cc4ccccc4)NC(=O)[C@H](CO)NC(=O)CNC(=O)[C@H]([C@@H](C)O)NC(=O)[C@H](C)NC1=O)C(=O)N[C@@H]([C@@H](C)O)C(=O)N[C@@H](CC(C)C)C(=O)N[C@@H](CO)C(=O)N[C@@H](CCCCN)C(=O)NCC(=O)N3)NC(=O)[C@H](CC(N)=O)NC(=O)[C@H](CCCCN)NC(=O)[C@H]([C@@H](C)O)NC2=O [Peptide K25A] | 3.8- to 30 fold | 44- to 195 fold | – |
| CC[C@H](C)[C@@H]1NC(=O)[C@@H](NC(=O)CN)CSSC[C@@H]2NC(=O)[C@@H]3CSSC[C@@H](C(=O)N[C@@H](CC(N)=O)C(=O)N4C[C@H](O)C[C@H]4C(=O)N4C[C@H](O)C[C@H]4C(=O)N[C@@H](CC(N)=O)C(=O)N[C@@H](CCC(N)=O)C(=O)O)NC(=O)[C@H](CCCCN)NC(=O)[C@H](Cc4ccccc4)NC(=O)[C@H](CC(N)=O)NC(=O)[C@H](Cc4c[nH]c5ccccc45)NC(=O)CNC(=O)[C@H](CSSC[C@H](NC(=O)[C@H](Cc4ccccc4)NC(=O)[C@H](CO)NC(=O)CNC(=O)[C@H]([C@@H](C)O)NC(=O)[C@H](C)NC1=O)C(=O)N[C@@H]([C@@H](C)O)C(=O)N[C@@H](C)C(=O)N[C@@H](CO)C(=O)N[C@@H](CCCCN)C(=O)NCC(=O)N3)NC(=O)[C@H](CC(N)=O)NC(=O)[C@H](CCCCN)NC(=O)[C@H]([C@@H](C)O)NC2=O [Peptide L11A] | 3.8- to 30 fold | – | – |
| CC[C@H](C)[C@@H]1NC(=O)[C@@H](NC(=O)CN)CSSC[C@@H]2NC(=O)[C@@H]3CSSC[C@@H](C(=O)N[C@@H](CC(N)=O)C(=O)N4C[C@H](O)C[C@H]4C(=O)N4C[C@H](O)C[C@H]4C(=O)N[C@@H](CC(N)=O)C(=O)N[C@@H](CCC(N)=O)C(=O)O)NC(=O)[C@H](CCCCN)NC(=O)[C@H](Cc4ccccc4)NC(=O)[C@H](CC(N)=O)NC(=O)[C@H](Cc4c[nH]c5ccccc45)NC(=O)CNC(=O)[C@H](CSSC[C@H](NC(=O)[C@H](Cc4ccccc4)NC(=O)[C@H](CO)NC(=O)CNC(=O)[C@H]([C@@H](C)O)NC(=O)[C@H](C)NC1=O)C(=O)N[C@@H]([C@@H](C)O)C(=O)N[C@@H](CC(C)C)C(=O)N[C@@H](CO)C(=O)N[C@@H](CCCCN)C(=O)NCC(=O)N3)NC(=O)[C@H](C)NC(=O)[C@H](CCCCN)NC(=O)[C@H]([C@@H](C)O)NC2=O [Peptide N19A] | – | – | no activity at all |
| CC[C@H](C)[C@@H]1NC(=O)[C@@H](NC(=O)CN)CSSC[C@@H]2NC(=O)[C@@H]3CSSC[C@@H](C(=O)N[C@@H](CC(N)=O)C(=O)N4C[C@H](O)C[C@H]4C(=O)N4C[C@H](O)C[C@H]4C(=O)N[C@@H](CC(N)=O)C(=O)N[C@@H](CCC(N)=O)C(=O)O)NC(=O)[C@H](CCCCN)NC(=O)[C@H](Cc4ccccc4)NC(=O)[C@H](CC(N)=O)NC(=O)[C@H](Cc4c[nH]c5ccccc45)NC(=O)CNC(=O)[C@H](CSSC[C@H](NC(=O)[C@H](Cc4ccccc4)NC(=O)[C@H](CO)NC(=O)CNC(=O)[C@H]([C@@H](C)O)NC(=O)[C@H](C)NC1=O)C(=O)N[C@@H]([C@@H](C)O)C(=O)N[C@@H](CC(C)C)C(=O)N[C@@H](CO)C(=O)N[C@@H](CCCCN)C(=O)NCC(=O)N3)NC(=O)[C@H](CC(N)=O)NC(=O)[C@H](CCCCN)NC(=O)[C@H](C)NC2=O [Peptide T17A] | – | 44- to 195 fold | – |
| CC[C@H](C)[C@@H]1NC(=O)[C@@H](NC(=O)CN)CSSC[C@@H]2NC(=O)[C@@H]3CSSC[C@@H](C(=O)N[C@@H](CC(N)=O)C(=O)N4C[C@H](O)C[C@H]4C(=O)N4C[C@H](O)C[C@H]4C(=O)N[C@@H](CC(N)=O)C(=O)N[C@@H](CCC(N)=O)C(=O)O)NC(=O)[C@H](CCCCN)NC(=O)[C@H](Cc4ccccc4)NC(=O)[C@H](CC(N)=O)NC(=O)[C@H](C)NC(=O)CNC(=O)[C@H](CSSC[C@H](NC(=O)[C@H](Cc4ccccc4)NC(=O)[C@H](CO)NC(=O)CNC(=O)[C@H]([C@@H](C)O)NC(=O)[C@H](C)NC1=O)C(=O)N[C@@H]([C@@H](C)O)C(=O)N[C@@H](CC(C)C)C(=O)N[C@@H](CO)C(=O)N[C@@H](CCCCN)C(=O)NCC(=O)N3)NC(=O)[C@H](CC(N)=O)NC(=O)[C@H](CCCCN)NC(=O)[C@H]([C@@H](C)O)NC2=O [Peptide W22A] | – | 44- to 195 fold | very low activity |
